# Reference: article PMC9698730 (Molecules, 2022)
# Construct, isoform or probe ends are uncertain for at least one entry. At least one verdict was read from the data and is not stated in words by the source.
# Molecular target: N FL (SARS-CoV-2 nucleoprotein, full length) (SARS-CoV-2 (initial Wuhan strain, wt)) (UniProt P0DTC9)
# Assay: DLS
# Details: recombinant protein; residues 1-419; protein details: His6; single-stranded DNA
sequence,measurement,value
ATATATATCTATGTCCATATATATATAAAACACAGCGTGTGTGTGTAA [48-mer DNA],binding result,binds
